Laboratory results published in patent US7718680B2 (priority 2004, dated 2010).

By UniProt entry, the sequences of proteins in these tests, tags left out. Residues count along the entry.
UniProt P15917, 34-809 limits assumed: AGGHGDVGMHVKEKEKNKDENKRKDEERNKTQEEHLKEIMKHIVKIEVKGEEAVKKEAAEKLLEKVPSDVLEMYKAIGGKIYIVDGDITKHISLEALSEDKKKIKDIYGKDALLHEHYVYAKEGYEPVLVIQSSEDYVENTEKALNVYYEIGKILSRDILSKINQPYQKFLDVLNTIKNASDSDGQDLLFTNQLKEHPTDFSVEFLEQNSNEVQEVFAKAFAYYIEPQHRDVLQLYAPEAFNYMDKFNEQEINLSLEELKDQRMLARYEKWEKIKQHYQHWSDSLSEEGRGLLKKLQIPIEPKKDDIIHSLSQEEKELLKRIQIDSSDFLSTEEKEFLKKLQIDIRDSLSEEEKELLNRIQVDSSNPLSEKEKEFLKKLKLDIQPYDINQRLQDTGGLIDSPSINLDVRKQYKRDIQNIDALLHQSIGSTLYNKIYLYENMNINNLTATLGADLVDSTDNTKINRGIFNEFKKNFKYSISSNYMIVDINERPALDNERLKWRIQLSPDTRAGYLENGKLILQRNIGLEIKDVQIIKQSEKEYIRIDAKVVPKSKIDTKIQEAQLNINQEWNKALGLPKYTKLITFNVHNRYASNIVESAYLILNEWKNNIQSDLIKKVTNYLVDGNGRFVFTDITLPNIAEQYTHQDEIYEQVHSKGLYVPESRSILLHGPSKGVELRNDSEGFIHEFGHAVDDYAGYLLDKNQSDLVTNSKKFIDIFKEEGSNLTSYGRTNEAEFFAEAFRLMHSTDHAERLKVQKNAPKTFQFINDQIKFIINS

Molecular target: Lethal Factor (LF) protease of anthrax toxin (Bacillus anthracis, UniProt P15917)
Assay type: biochemical

SMILES	IC50
O=C1/C(=C/c2ccc(-c3ccc([N+](=O)[O-])cc3)o2)SC(=S)N1Cc1ccco1 [Compound 9]	12.6 µM
O=C(O)CCN1C(=O)/C(=C/c2ccc(-c3ccc([N+](=O)[O-])cc3)o2)SC1=S [Compound 19]	2.7 µM
